## HIV-1 NL4-3 point mutations in Nef: replication capacity

Source: Al-Mawsawi et al. 2014 (doi:10.1186/s12977-014-0124-6), supplementary data.

Protein: Nef of HIV-1 NL4-3, numbered from its first residue.
From base 9076 on, changes also alter the 3' U3.
Effects on overlapping genes or RNA elements are not listed.

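Random point mutant libraries of HIV-1 NL4-3, one for each of seven fragments, were passaged in CEM T lymphocytes. The RC index is the frequency of a change after passage round 2 divided by its frequency in the plasmid library.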

RC index: lower means poorer replication; rough cut-offs are 0.1 (lethal) and 0.2 (tolerated). Substitutions are written as wild-type residue, site number, new residue. Input reads are the counts in the plasmid library. Base changes are numbered along pNL4-3.

| change | base | input reads | RC index |
|---|---|---|---|
| G3A | G8794C | 81 | 0.120 |
| K4E | A8796G | 490 | 0.0678 |
| K4N | G8798C | 44 | 0.818 |
| S8G | A8808G | 844 | 0.673 |
| S9G | A8811G | 352 | 0.0590 |
| A15P | G8829C | 42 | 0.186 |
| R19K | G8842A | 71 | 1.37 |
| I43F | A8913T | 267 | 0.756 |
| T44A | A8916G | 195 | 0.463 |
| S46G | A8922G | 227 | 0.963 |
| A49P | G8931C | 76 | 0.446 |
| A54T | G8946A | 328 | 0.817 |
| C55W | T8951G | 36 | 0.549 |
| E63D | G8975T | 249 | 0.516 |
| E65G | A8980G | 259 | 0.899 |
| V66A | T8983C | 196 | 0.741 |
| G67A | G8986C | 83 | 0.255 |
| Q73K | C9003A | 114 | 0.606 |
| Q73H | G9005T | 369 | 0.856 |
| R77K | G9016A | 74 | 1.51 |
| R77S | A9017T | 224 | 0.737 |
| D86V | A9043T | 475 | 0.441 |
| L87H | T9046A | 370 | 0.541 |
| L87P | T9046C | 321 | 0.353 |
| H89L | A9052T | 214 | 0.746 |
| F90I | T9054A | 302 | 0.548 |
| L91I | T9057A | 281 | 0.445 |
| L91F | A9059T | 354 | 0.130 |
| K92E | A9060G | 260 | 0.133 |
| G95E | G9070A | 244 | 0.142 |
| G99W | G9081T | 104 | 0.425 |
| I101V | A9087G | 318 | 0.907 |
| R105G | A9099G | 431 | 0.714 |
| R106I | G9103T | 130 | 0.251 |
| Q107R | A9106G | 474 | 0.726 |
| D108G | A9109G | 207 | 0.492 |
| D108V | A9109T | 237 | 0.600 |
| L110V | C9114G | 40 | 0.240 |
| D111N | G9117A | 248 | 0.744 |
| Y115F | A9130T | 192 | 0.641 |
| Q118R | A9139G | 336 | 0.790 |
| P122H | C9151A | 360 | 0.593 |
| D123E | T9155A | 396 | 0.670 |
| W124R | T9156A | 410 | 0.722 |
| Y127C | A9166G | 246 | 0.657 |
| T128I | C9169T | 578 | 0.775 |
| V133G | T9184G | 40 | 0.977 |
| W141R | T9207A | 377 | 0.605 |
| W141S | G9208C | 36 | 0.290 |
| K144E | A9216G | 388 | 0.699 |
| P150A | C9234G | 55 | 0.379 |
| K152R | A9241G | 239 | 0.916 |
| E155V | A9250T | 156 | 0.459 |
| K158N | A9260T | 360 | 0.938 |
| E160D | G9266C | 46 | 0.170 |
| S163R | A9273C | 63 | 0.848 |
| S163G | A9273G | 284 | 0.578 |
| L164V | T9276G | 111 | 0.387 |
| S169C | A9291T | 363 | 0.754 |
| G172A | G9301C | 82 | 0.270 |
| E177Q | G9315C | 34 | 0.422 |
| E177G | A9316G | 352 | 0.703 |
| E179K | G9321A | 185 | 1.47 |
| E182G | A9331G | 310 | 0.307 |
| D186V | A9343T | 415 | 0.383 |
| D186E | C9344G | 198 | 0.554 |
| L189P | T9352C | 343 | 0.606 |
| A190T | G9354A | 486 | 0.768 |
| A190S | G9354T | 191 | 0.628 |
| A190V | C9355T | 439 | 0.439 |
| H192L | A9361T | 261 | 0.783 |
| H193L | A9364T | 469 | 0.292 |
| E197G | A9376G | 240 | 0.549 |
| E197V | A9376T | 194 | 0.757 |
| N205K | C9401G | 130 | 0.727 |
| C206S | G9403C | 95 | 0.231 |

9 of these entries, quoted again:

| change | base | input reads | RC index |
|---|---|---|---|
| I43F | A8913T | 267 | 0.756 |
| W141R | T9207A | 377 | 0.605 |
| A190V | C9355T | 439 | 0.439 |
| I101V | A9087G | 318 | 0.907 |
| H192L | A9361T | 261 | 0.783 |
| L189P | T9352C | 343 | 0.606 |
| A49P | G8931C | 76 | 0.446 |
| S169C | A9291T | 363 | 0.754 |
| T44A | A8916G | 195 | 0.463 |

Clones carried about five changes per kilobase, which can drag down the index of neutral changes. An index over 1, which the authors read as above wild type, was rare (1.9% of all changes in the genome).